Measurements from PubChem BioAssay AID1950 (The Scripps Research Institute Molecular Screening Center, 2009).
This is a selection; strong and weak results do not stand in their true shares. Calls of active or inactive are those of the source. Rule as the data show it: active = inhibition above about 28%; inactive = the rest.

Tested on: EBNA-1 (Epstein-Barr virus nuclear antigen 1), Human herpesvirus 4
Experiment: blockers of EBV EBNA-1 binding to DNA – biochemical, fluorescence polarization, primary screen (AID 1950)
Conditions: EBNA-1 DNA binding, at 14.8 µM, hits give high values

Structure (SMILES)	inhibition
Oc1ccccc1CNc1ccccn1	inactive: 8.67%
Cc1ccc(OP(=O)(Nc2nccs2)Oc2ccc(C)cc2)cc1	inactive: -1.59%
COc1ccccc1OP(=O)(Nc1ccc(C)cn1)Oc1ccccc1OC	inactive: -6.41%
Clc1ccc(Cl)c(NC2=NCC(CBr)S2)c1 (configuration not stated)	inactive: 0.4%
CN1CCCC(OC(=O)C(c2ccccc2)c2ccccc2)C1 (configuration not stated)	inactive: 7.03%
NC(=O)c1cc([N+](=O)[O-])cc([N+](=O)[O-])c1N	inactive: -10.9%
Cc1ccc(N/C(=N/P(=O)(N2CCOCC2)N2CCOCC2)N2CCOCC2)cc1	inactive: -7.98%
CN(C(=O)Cc1ccc(Cl)c(Cl)c1)[C@H]1CCCC[C@H]1N1CCCC1	inactive: -2.52%
CC(=O)Nc1ccc(Oc2c([N+](=O)[O-])cc([N+](=O)[O-])cc2[N+](=O)[O-])cc1	inactive: -3.9%
CC(=O)Nc1ccc([As](=O)(O)O)c(O)c1	inactive: -15.2%
CC(=O)c1ccc(N2CC2c2ccncc2)cc1 (configuration not stated)	inactive: 0.39%
C[C@@H]1C=CCP(=O)(Oc2ccccc2)O1 (some centres not stated)	inactive: 8.18%
C[C@H]1OP(=O)(Oc2ccccc2)C[C@@H]2O[C@@H]21 (some centres not stated)	inactive: -4.63%
CC(C)(C)C(=O)NC(Sc1ccccc1)C(Cl)(Cl)Cl (configuration not stated)	inactive: -7.45%
CCOc1ccc(C2=NCC(CBr)S2)cc1 (configuration not stated)	inactive: 4.37%
O=P1(Nc2nc3ccc(Cl)cc3s2)COc2ccccc2O1 (configuration not stated)	inactive: -1.44%
CN(C)C(=O)Oc1noc2ccccc12	inactive: -2.22%
Cc1ccccc1OP(=O)(Nc1ccccn1)Oc1ccccc1C	inactive: -1.91%
CC(=O)NC(SC(=S)N(CC(C)C)CC(C)C)C(Cl)(Cl)Cl (configuration not stated)	inactive: -1.59%
Cc1ccc(OP(=O)(Nc2ccccn2)Oc2ccc(C)cc2)cc1	inactive: 3.33%
COC(=O)c1cc2c(s1)N=C(c1ccccc1)N(C)P2(=O)N1CCOCC1 (configuration not stated)	inactive: -3.21%

Structure (SMILES)	inhibition
CCC(=O)N1C2C3N(C(=O)CC)C1C1N(C(=O)CC)C(C(N1C(=O)CC)N3C(=O)CC)N2C(=O)CC	inactive: 2.4%
O=C(OC1CN2CCC1CC2)c1ccccc1 (configuration not stated)	inactive: -23.6%
O=C(NC1CCS(=O)(=O)C1)NP(=S)(Oc1ccccc1)Oc1ccccc1 (configuration not stated)	inactive: 3.23%
CCNC(=S)/N=C(\N)N[N+](=O)[O-]	inactive: -1.1%
Cc1ccc(NP(=O)(Oc2cccc(C)c2)Oc2cccc(C)c2)nc1	inactive: -16.9%
CCOC(=O)NC(Sc1ccccc1)C(Cl)(Cl)Cl (configuration not stated)	inactive: 0.44%
c1ccc(-c2nn[nH]n2)c(-c2nn[nH]n2)c1	inactive: -0.07%
Nc1ccc([As](=O)(O)c2ccc([N+](=O)[O-])cc2)cc1	inactive: 5.99%
C(Cc1nn[nH]n1)Cc1nn[nH]n1	inactive: 7.41%
O=C(OC1CN2CCC1CC2)c1cccc(Cl)c1 (configuration not stated)	inactive: 4.88%
CC(=O)NC(SC(=S)N(C)C)C(Cl)(Cl)Cl (configuration not stated)	inactive: 14.4%
O=[N+]([O-])c1ncn(CCn2cnc([N+](=O)[O-])n2)n1	inactive: -1.96%
O=[N+]([O-])c1ccc(O)c(/C=N/Nc2ccc([N+](=O)[O-])cc2[N+](=O)[O-])c1	inactive: -11.4%
O=[As](O)(c1ccccc1)c1ccc(O)cc1	inactive: 0.18%
C[C@H]1OP(=O)(Oc2ccccc2)[C@H](O)[C@H](O)[C@H]1N=[N+]=[N-] (some centres not stated)	inactive: -7.39%
O=P(Nc1nc2ccccc2s1)(c1ccccc1)c1ccccc1	inactive: 9.86%
CN(C)C1(CNC(=O)c2ccc(Cl)c(S(N)(=O)=O)c2)CCCCC1	inactive: -16.1%
O=P(Nc1ccccn1)(c1ccc(Br)cc1)c1ccc(Br)cc1	inactive: -3.67%
c1nnnn1CCn1cnnn1	inactive: -10.5%
O=P(Nc1nccs1)(c1ccccc1)c1ccccc1	inactive: 4.73%
CC(C)C(=O)NC(Sc1ccccc1)C(Cl)(Cl)Cl (configuration not stated)	inactive: -8.35%
